# Measured values from patent US9505834B2, “Methods for controlling the galactosylation profile of recombinantly-expressed proteins” (AbbVie Inc., priority 2011, dated 2016).
# Tested on: adalimumab-producing CHO cell line
# Experiment: Example 1 culture growth & productivity, batch shake flasks
# Format: cell-based, Chinese Hamster
# Details: manganese chloride 100 μM, galactose 0 to 100 mM
# Experimental: All supernatants were stored at −80° C. until analysis. […] Culture growth, productivity, and product quality data for control cultures is the average of the 3 experiments.
substance,measurement,value
Manganese (II) Chloride [manganese chloride],culture growth and viability,growth lag and decreased viability for the first 4 production days
